Measured values: paper PMC10227026, “Rapid evolution of A(H5N1) influenza viruses after intercontinental spread to North America” (2023)

Tests used:
M2 of Eagle/NC/22 (H5N1) = experiment: Genotypic susceptibility to M2 protein inhibitors; conditions: M2 residues 26, 27, 30, 31, 34
M2 of Hawk/NC/22 (H5N1) = experiment: Genotypic susceptibility to M2 protein inhibitors; conditions: M2 residues 26, 27, 30, 31, 34
[1] = system: M2 of Wigeon/SC/21 (H5N1); experiment: Genotypic susceptibility to M2 protein inhibitors; conditions: M2 residues 26, 27, 30, 31, 34
M2 of Ck/NL/21 (H5N1) = experiment: Genotypic susceptibility to M2 protein inhibitors; conditions: M2 residues 26, 27, 30, 31, 34
M2 of Scaup/GA/22 (H5N1) = experiment: Genotypic susceptibility to M2 protein inhibitors; conditions: M2 residues 26, 27, 30, 31, 34
M2 of Eagle/FL/22 (H5N1) = experiment: Genotypic susceptibility to M2 protein inhibitors; conditions: M2 residues 26, 27, 30, 31, 34

Row | Compound | Susceptibility to M2 inhibitor (amantadine) (M2 of Eagle/NC/22 (H5N1)) | Susceptibility to M2 inhibitor (amantadine) (M2 of Hawk/NC/22 (H5N1)) | Susceptibility to M2 inhibitor (amantadine) [1] | Susceptibility to M2 inhibitor (amantadine) (M2 of Ck/NL/21 (H5N1)) | Susceptibility to M2 inhibitor (amantadine) (M2 of Scaup/GA/22 (H5N1)) | Susceptibility to M2 inhibitor (amantadine) (M2 of Eagle/FL/22 (H5N1)) | EC50 (Eagle/NC/22 (H5N1)) [nM] | EC50 (Hawk/NC/22 (H5N1)) [nM]
1 | NC12CC3CC(CC(C3)C1)C2 | S | S | S | S | S | S | – | –
2 | O=C1c2c(O)c(=O)ccn2N([C@@H]2c3ccccc3SCc3c2ccc(F)c3F)[C@@H]2COCCN12 | – | – | – | – | – | – | 0.52 | 0.27
